Assay results published in patent US20240368655.

Biological target: Concanavalin A (UniProt P02866)
Experiment: flow cytometry
Details: 5' 20 nt DNA primer, remainder FANA (2'-deoxy-2'-fluoroarabino), purified native protein, protein details: Alexa Fluor 647 labeled, label: 5'-BiotinTEG, synthetic backbone

“ATTTTATATTCGGGTACGGGCGTGTGCCTTAGTAATATGGTTTCAACACGTGCCTTTGACCTTGTGCAAACGGCTATAGG [can-3 Man-cmFANA]”: binds (every U in FANA region is C8-alkyne-FANA U click-conjugated to 2-azidoethyl-alpha-D-mannose).

“ATTTTATATTCGGGTACGGGATTTATTTATGACCAGAATGATATTTCTGAGCATATCACTCTTGTGCAAACGGCTATAGG [can-4 Man-cmFANA]”: binds (every U in FANA region is C8-alkyne-FANA U click-conjugated to 2-azidoethyl-alpha-D-mannose (21 conjugations)).

“ATTTTATATTCGGGTACGGGACAAGGATTCGGGATAGTTCTACGATGGATTGGGGTCGTACTTGTGCAAACGGCTATAGG [can-2 Man-cmFANA]”: binds (every U in FANA region is C8-alkyne-FANA U click-conjugated to 2-azidoethyl-alpha-D-mannose (15-16 conjugations)).

Construct, isoform or probe ends are uncertain for at least one entry.
